Measured values from several laboratories, pooled; numbers as filed in NIAID ChemDB.

Common to all: whole-cell or culture tests; organism: HIV-1; method: RT activity; read-out: inhibition

An empty or dashed field is not shown. Rows are shuffled and stem from different studies. Inhibition is in % at the dose shown (toxicity tests: loss of growth or viability).

CC(=O)Oc1ccc2[nH]cc(C(=O)C(=O)N3CCN(C(=O)c4ccccc4)CC3)c2c1 ; tested at: 10 µM ; strain: BRU ; cells: MT-2 ; value: 75.8%
NCCCC(NC(=O)CCCCCCCCN=C(N)N)C(O)CCCCCCCCN=C(N)N ; tested at: 100 µg/mL ; strain: IIIB ; cells: H9 ; value: 70%
CN(C[C@@H](CCN1CCC2(CC1)CC(=O)c1ccccc12)c1cccc(Cl)c1)S(=O)(=O)c1ccccc1 ; tested at: 1.5 µM ; strain: YU2 ; cells: PBMC ; value: 95%
CC(C)[C@H](NC(=O)[C@H](Cc1ccccc1)C[C@H](O)[C@H](Cc1ccccc1)NC(=O)OC(C)(C)C)C(=O)N[C@@H](Cc1ccccc1)C(=O)N1CCOCC1 ; tested at: 0.03 µM ; strain: MN ; cells: MT-2 ; value: 90%
CCN(CC)C(=S)S ; tested at: 0.0000075 µg/mL ; strain: LAV ; cells: H9 ; value: 30%
Nc1ncnc2c1ncn2COCCOP(=O)([O-])O[C@@H]1[C@H](O)[C@@H](COP(=O)([O-])O[C@@H]2[C@H](O)[C@@H](COP(=O)([O-])O[C@@H]3[C@H](O)[C@@H](CO)O[C@H]3n3cnc4c(N)ncnc43)O[C@H]2n2cnc3c(N)ncnc32)O[C@H]1n1cnc2c(N)ncnc21 ; tested at: 300 µM ; cells: SupT1 + Sup-T1 ; value: 72%
Nc1ccn([C@@H]2C=C[C@H](CO)O2)c(=O)n1 ; tested at: 28.2 µM ; mutations: RT-M184V ; cells: PBMC ; value: 90%
O=P(O)(O)OP(=O)(O)OP(=O)(O)OP(=O)(O)O ; tested at: 100 µg/mL ; strain: IIIB ; cells: H9 ; value: 30%
O=C(C(=O)N1CCN(C(=O)c2ccc(F)cc2)CC1)c1c[nH]c2ccccc12 ; tested at: 10 µM ; strain: BRU ; cells: MT-2 ; value: 73.6%
O=C1CCC(N2C(=O)c3ccccc3C2=O)C(=O)N1 ; tested at: 50 µg/mL ; strain: JR-FL ; cells: Macrophage ; value: 60%
CC(=O)N[C@H]1CSSC[C@@H](C(=O)N[C@@H](CCC(N)=O)C(=O)O)NC(=O)[C@H](Cc2cnc[nH]2)NC(=O)[C@H](Cc2ccccc2)NC1=O ; tested at: 2.5 µM ; strain: NL4-3 ; conditions: 6 d ; cells: MT-4 ; value: 0%
COc1c(C)c2c(c(O)c1C/C=C(\C)CCC(=O)O)C(=O)OC2 ; tested at: 10 µM ; strain: SF162 ; cells: PBL(CD4+) + PBL ; value: 100%
O=C(O)[C@H]1O[C@@H](Oc2ccc(/C=C/c3cc(O)cc(O)c3)cc2)[C@H](O)[C@@H](O)[C@@H]1O ; tested at: 300 µM ; strain: IIIB ; cells: PBMC ; value: 30.4%
Nc1ncnc2c1ncn2COCCOP(=O)([O-])O[C@@H]1[C@H](O)[C@@H](COP(=O)([O-])O[C@@H]2[C@H](O)[C@@H](CO)O[C@H]2n2cnc3c(N)ncnc32)O[C@H]1n1cnc2c(N)ncnc21 ; tested at: 300 µM ; cells: SupT1 + Sup-T1 ; value: 63%
Nc1ccn([C@H]2CC[C@@H](CO)O2)c(=O)n1 ; tested at: 0.01 µM ; strain: LAV ; cells: MT-2 ; value: 37%
CCCCCCCCCCCCCCCCOP(=O)(OCCO[C@@H]1O[C@H](CO)[C@@H](O)[C@H](O)[C@@H]1O)OC[C@H]1O[C@@H](n2cc(C)c(=O)[nH]c2=O)C[C@@H]1N=[N+]=[N-] ; tested at: 1 µM ; strain: LAV-Bru ; conditions: 7 d ; cells: CEM ; value: 71%
O=C(C(=O)N1CCN(C(=O)c2ccc(F)c(F)c2)CC1)c1c[nH]c2ccccc12 ; tested at: 10 µM ; strain: BRU ; cells: MT-2 ; value: 32.7%
CC(C)C[C@H](NC(=O)[C@@H](O)[C@H](N)Cc1ccccc1)C(=O)O ; tested at: 200 µg/mL ; strain: IIIB ; conditions: chronic infection ; cells: HUT78/HIV-1(IIIB) + HUT 78 ; value: 19%
CC1(C)[C@@H](O[C@H]2O[C@H](C(=O)O)[C@@H](O)[C@H](O)[C@H]2O[C@@H]2O[C@H](C(=O)O)[C@@H](O)[C@H](O)[C@H]2O)CC[C@]2(C)[C@H]3C(=O)C=C4[C@@H]5C[C@@](C)(C(=O)O)CC[C@]5(C)CC[C@@]4(C)[C@]3(C)CC[C@@H]12 ; tested at: 1200 µM ; strain: IIIB ; conditions: 9 d ; cells: MOLT-4 ; value: 78.5%
O=C(C(=O)N1CCN(C(=O)c2c(F)cccc2F)CC1)c1c[nH]c2ccccc12 ; tested at: 10 µM ; strain: BRU ; cells: MT-2 ; value: 66.8%
CC(C)[C@H](NC(=O)[C@H](Cc1ccccc1)C[C@H](O)[C@H](Cc1ccccc1)NC(=O)OC(C)(C)C)C(=O)N[C@@H](Cc1ccccc1)C(=O)N1CCOCC1 ; tested at: 0.1 µM ; strain: AMS316-23 ; cells: PBL ; value: 89%
C[C@@H](O)[C@H](NC(=O)[C@H](Cc1ccc(O)cc1)NC(=O)[C@H](CC(N)=O)NC(=O)[C@@H](NC(=O)[C@@H](N)CO)[C@@H](C)O)C(=O)O ; tested at: 0.001 µM ; strain: LAV ; cells: A3.01 ; value: 85.7%
O=C(C(=O)N1CCN(C(=O)c2ccccc2)CC1)c1c[nH]c2cccc(Cl)c12 ; tested at: 10 µM ; strain: BRU ; cells: MT-2 ; value: >98%
Cc1cn([C@H]2C[C@H](N=[N+]=[N-])[C@@H](COP(=O)(O)OCCO[C@H]3O[C@H](CO)[C@@H](O)[C@H](O)[C@@H]3O)O2)c(=O)[nH]c1=O ; tested at: 5 µM ; strain: LAV-Bru ; conditions: 7 d ; cells: CEM ; value: 92%
CC(C)(C)c1ccc(C(=O)N2CCN(C(=O)C(=O)c3c[nH]c4ccccc34)CC2)cc1 ; tested at: 10 µM ; strain: BRU ; cells: MT-2 ; value: 47.9%
CN(C)c1ncnc2c1ncn2[C@@H]1O[C@H](CO)[C@@H](N)[C@H]1O ; tested at: 2 µg/mL ; strain: X ; cells: H9 ; value: 95%
Nc1ncnc2c1ncn2COCCOP(=O)(O)O[C@@H]1C[C@@H](COP(=O)(O)O[C@@H]2C[C@@H](COP(=O)(O)O[C@@H]3C[C@@H](CO)O[C@H]3n3cnc4c(NCc5ccccc5)ncnc43)O[C@H]2n2cnc3c(N)ncnc32)O[C@H]1n1cnc2c(N)ncnc21 ; tested at: 100 µM ; cells: SupT1 + Sup-T1 ; value: 60%
CC(=O)CCCCn1c(=O)c2c(ncn2C)n(C)c1=O ; tested at: 250 µM ; cells: PBMC ; value: 70%

2 of the rows above, restated:

compound | tested at | strain | mutations | conditions | cells | value
CC(=O)CCCCn1c(=O)c2c(ncn2C)n(C)c1=O | 250 µM | - | - | - | PBMC | 70%
O=C1CCC(N2C(=O)c3ccccc3C2=O)C(=O)N1 | 50 µg/mL | JR-FL | - | - | Macrophage | 60%